{"source": "PubChem BioAssay AID624099 (ICCB-Longwood, 2012)", "purpose": "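Host factors E2 relies on to silence an HPV18 LCR reporter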 (primary screen)", "cell system": "human C33A cervical carcinoma cells (HPV-negative) stably expressing BPV1 E2 and an HPV18 LCR luciferase reporter", "reagents": "siRNA pool against human genes, 40 nM", "duration": "72 h", "measured": "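HPV18 LCR reporter light per well, converted to plate-wise z-scores that exclude control wells, and averaged over triplicate plates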", "reading the numbers": "mean z-score and z-score: higher = stronger reporter signal, weaker E2 silencing", "rule for the call": "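Mean z ≥ 2 together with z ≥ 2 in two or more of the three replicates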", "note": "Shown is an unselected part of about 21,000 deposited reagents. Over the whole deposit, 497 (2.4%) got an active call. 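Higher z means weaker E2 silencing; only reporter increases were scored, and knock-downs that hurt cell survival may mask genuine repressor factors.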"}
{"gene": "HPS1", "mean z-score": -2.39, "z-score, replicate A": -2.49, "z-score, replicate B": -2.36, "z-score, replicate C": -2.32, "outcome": "inactive"}
{"gene": "RFX6", "mean z-score": 0.52, "z-score, replicate A": 0.75, "z-score, replicate B": 0.29, "z-score, replicate C": 0.61, "outcome": "inactive"}
{"gene": "TGFBI", "mean z-score": 7.34, "z-score, replicate A": 7.2, "z-score, replicate B": 7.29, "z-score, replicate C": 7.53, "outcome": "active"}
{"gene": "LPCAT1", "mean z-score": 0.72, "z-score, replicate A": 0.73, "z-score, replicate B": 0.52, "z-score, replicate C": 0.9, "outcome": "inactive"}
{"gene": "GSTM5", "mean z-score": -0.38, "z-score, replicate A": -0.15, "z-score, replicate B": -0.48, "z-score, replicate C": -0.5, "outcome": "inactive"}
{"gene": "NOTCH2NLA", "mean z-score": 0.79, "z-score, replicate A": 0.87, "z-score, replicate B": 0.48, "z-score, replicate C": 1.02, "outcome": "inactive"}
{"gene": "C4orf54", "mean z-score": -0.08, "z-score, replicate A": 0, "z-score, replicate B": -0.33, "z-score, replicate C": 0.09, "outcome": "inactive"}
{"gene": "ETFB", "mean z-score": 0.57, "z-score, replicate A": 0.66, "z-score, replicate B": 0.46, "z-score, replicate C": 0.6, "outcome": "inactive"}
{"gene": "ZNF813", "mean z-score": -0.43, "z-score, replicate A": -0.64, "z-score, replicate B": -0.51, "z-score, replicate C": -0.14, "outcome": "inactive"}
{"gene": "FCN1", "mean z-score": 1.05, "z-score, replicate A": 0.85, "z-score, replicate B": 1.39, "z-score, replicate C": 0.91, "outcome": "inactive"}
{"gene": "PRPF6", "mean z-score": 0.3, "z-score, replicate A": 0.24, "z-score, replicate B": 0.27, "z-score, replicate C": 0.4, "outcome": "inactive"}
{"gene": "MDFI", "mean z-score": 0.75, "z-score, replicate A": 0.6, "z-score, replicate B": 0.95, "z-score, replicate C": 0.72, "outcome": "inactive"}
{"gene": "SLC39A2", "mean z-score": -1.75, "z-score, replicate A": -2, "z-score, replicate B": -1.9, "z-score, replicate C": -1.34, "outcome": "inactive"}
{"gene": "MYOC", "mean z-score": 0.86, "z-score, replicate A": 0.53, "z-score, replicate B": 0.87, "z-score, replicate C": 1.18, "outcome": "inactive"}
{"gene": "NKX2-1", "mean z-score": 0.1, "z-score, replicate A": 0.37, "z-score, replicate B": -0.06, "z-score, replicate C": -0.01, "outcome": "inactive"}
{"gene": "LINC01550", "mean z-score": -1.19, "z-score, replicate A": -1.28, "z-score, replicate B": -1.34, "z-score, replicate C": -0.95, "outcome": "inactive"}
{"gene": "LOC338825 (retired record)", "mean z-score": -0.91, "z-score, replicate A": -0.82, "z-score, replicate B": -0.93, "z-score, replicate C": -0.99, "outcome": "inactive"}
{"gene": "MED10", "mean z-score": -0.1, "z-score, replicate A": 0.08, "z-score, replicate B": 0.1, "z-score, replicate C": -0.49, "outcome": "inactive"}
{"gene": "INTS7", "mean z-score": 3.97, "z-score, replicate A": 3.98, "z-score, replicate B": 3.74, "z-score, replicate C": 4.19, "outcome": "active"}
{"gene": "SLK", "mean z-score": -0.52, "z-score, replicate A": -0.42, "z-score, replicate B": -0.66, "z-score, replicate C": -0.48, "outcome": "inactive"}
{"gene": "LY6D", "mean z-score": 0.28, "z-score, replicate A": 0.08, "z-score, replicate B": 0.34, "z-score, replicate C": 0.43, "outcome": "inactive"}

Hits, among the entries above:
{"gene": "TGFBI", "mean z-score": 7.34, "z-score, replicate A": 7.2, "z-score, replicate B": 7.29, "z-score, replicate C": 7.53, "outcome": "active"}
{"gene": "INTS7", "mean z-score": 3.97, "z-score, replicate A": 3.98, "z-score, replicate B": 3.74, "z-score, replicate C": 4.19, "outcome": "active"}
